Test results from publication PMC3878761, “Interactions of peptide triazole thiols with Env gp120 induce irreversible breakdown and inactivation of HIV-1 virions” (Retrovirology, 2013).

Tests used:
[1] = molecular target: HIV-1 R3A Env gp41 on pseudovirions (HIV-1 R3A)
[2] = system: HIV-1 R3A pseudovirus; conditions: read-out: IC50, infection inhibition, R3A, HOS CD4^+ve CCR5^+ve cells, Figure S9, ± SD, n = 3
[3] = system: HIV-1 R3A V38A pseudovirus; conditions: read-out: IC50, infection inhibition, R3A V38A; R3A V38A pseudovirus (T20 resistant), HOS CD4^+ve CCR5^+ve cells, Figure S9; ± SD, n = 3

| Substance | inhibition by T20 of KR13-induced p24 release from HIV-1 R3A pseudovirus, IC50 [1] | IC50 [2] | IC50 [3] |
| --- | --- | --- | --- |
| enfuvirtide (T20) (peptide) | 5.9 nM |  |  |
| enfuvirtide |  | 171 ± 45.9 nM | 3300 ± 200 nM |
